Source: PMC12299576 (Viruses, 2025)

What follows are molecules tested on HTNV-76118 strain. Conditions: selection index, CC50/EC50, Vero E6.
Type: cell-based, Hantaan virus (HTNV)

First: CC(C)CC(=O)c1c(O)c2c(c3c1OC1(O)C(C(=O)C(C)(C)C(=O)C1(C)C)C3CC(C)C)OC1=C(C(=O)C(C)(C)C(=O)C1(C)C)C2CC(C)C (centres unmarked) [Callistemontrimer B, callistemontrimer B]
Second: CC(C)CC(=O)c1c(O)c2c(c3c1OC1(O)C(C(=O)C(C)(C)C(=O)C1(C)C)C3C(C)C)OC1=C(C(=O)C(C)(C)C(=O)C1(C)C)C2CC(C)C (centres unmarked) [Callistemontrimer A, callistemontrimer A]
The SI of the first is lower: 6.05 for the first, 7.28 for the second.

Going from `CC(C)CC(=O)c1c(O)cc2c(c1O)C(CC(C)C)C1=C(O2)C(C)(C)C(=O)C(C)(C)C1=O` (centres unmarked) [Rhodomyrtone, rhodomyrtone] to `CC(C)CC(=O)c1c(O)cc(O)c2c1OC1=C(C(=O)C(C)(C)C(=O)C1(C)C)C2CC(C)C` (centres unmarked) [Rhodomyrtosone B, rhodomyrtosone B], the SI falls from 17.03 to 2.77.

With `NC(=O)c1ncn([C@@H]2O[C@H](CO)[C@@H](O)[C@H]2O)n1` [Ribavirin, ribavirin, reference compound] the SI was over 9.74.
